Measurements: US6716428B1 (The Ohio State University Research Foundation, priority 1999, dated 2004)
Read-outs that look alike come from different tables or passages of the source.

Tested on: female baboons

## Tetanus Toxoid: carrier protein given alone to the control group
Post-Immunization menstrual cycle 1
  Cycle length (mean): 33.0
Post-Immunization menstrual cycle 2
  Cycle length (mean): 32.0
Post-Immunization menstrual cycle 3
  Cycle length (mean): 32.0
Post-Immunization menstrual cycle 4
  Cycle length (mean): 29.0
Pre-Immunization menstrual cycle −1
  Cycle length (mean): 32.9
Pre-Immunization menstrual cycle −2
  Cycle length (mean): 32.2
Pre-Immunization menstrual cycle −3
  Cycle length (mean): 33.1
